A mixed list of measured activities; the numbers were collected in NIAID ChemDB.

Common to all: cytotoxicity tests; cells: PBMC; endpoint: CC50

CCn is the concentration with n% toxicity to the cells. Lines come from different laboratories, so protocols vary. Blank or dashed fields: not listed here.

structure | read by | result
Cc1cc(C)c(Cn2c(=O)ccn(CC#N)c2=O)c(C)c1 | - | >441 µM
CC1=CC(=O)c2c(O)ccc(-c3ccc(O)c4c3C(=O)C(C)=CC4=O)c2C1=O | - | >125 µg/mL
[N-]=[N+]=NC1=C[C@H](n2cnc3c(=O)[nH]c(N)nc32)O[C@@H]1CO | - | 28 µM
CCc1cn([C@H]2C=C[C@@H](CO)O2)c(=O)[nH]c1=O | - | >100 µM
O[C@]12C=C(Cc3cnccn3)[C@@H]3CCN(CCCC/C=C\CC1)C[C@@]31C[C@@H]3CCCCCCN3C12 | trypan blue | 14.1 µM
CC1=CC2=C(C(C)C)C(O)C(=O)/C(=C\NC(C)(C)C(=O)O)C2C(O)=C1c1c(C)cc2c(C(C)C)c(O)c(O)c(C=NC(C)(C)C(=O)O)c2c1O.[Na+].[Na+] | MTT | 81.43 µM
COC(=O)C(C)CNP(=O)(OC[C@@H]1CC[C@H](n2cc(C)c(=O)[nH]c2=O)O1)Oc1ccc([N+](=O)[O-])cc1 | - | >100 µM
Nc1ncnc2c1ncn2[C@@H]1C[C@@H](O)[C@H](CO)O1 | - | >200 µM
CC1=C(C2=C(C)C(=O)c3cccc(O)c3C2=O)C(=O)c2c(O)cccc2C1=O | - | >125 µg/mL
Nc1ncnc2c1ncn2[C@@H]1O[C@H](CO)C=C1F | - | 68.3 µM
[O-][n+]1ccc(CC2=C[C@@]3(O)CC/C=C\CCCCN4CC[C@@H]2[C@]2(C[C@@H]5CCCCCCN5C23)C4)cc1 | trypan blue | 5.1 µM
C[C@]12CC[C@@H]3c4ccc(O)cc4CC[C@H]3[C@@H]1CC[C@@H]2O | MTS | >0.003 µM
COC(=O)[C@@H](Cc1c[nH]c2ccccc12)NC(=O)OC[C@H]1O[C@@H](n2cc(C)c(=O)[nH]c2=O)C[C@@H]1N=[N+]=[N-] | - | >100 µM
CCCCCCCCc1cc2cn(COCCO)c(=O)nc2o1 | - | 52.9 µM
CCCN(C)C(=O)Oc1nsnc1-c1c(Cl)ccc(N)c1Cl | - | 53 µM
Cc1cn([C@H]2C[C@H](N=[N+]=[N-])[C@@H](CO)O2)c(=O)[nH]c1=O | - | >100 µM
Nc1ncnc2c1ncn2[C@@H]1OC[C@](CO)(CCP(=O)(O)O)[C@@H]1F | MTT | 57.5 µM
Cc1cn([C@H]2C=C[C@@H](CO)O2)c(=O)[nH]c1=O | - | >100 µM
[N-]=[N+]=N[C@H]1[C@@H](O)[C@H](n2ccc(N)nc2=O)O[C@@H]1CO | - | >100 µM
CCCCCc1ccc(-c2cc3cn(CC=C(CO)CO)c(=O)nc3o2)cc1 | - | 11.1 µM
CC1=C(O)c2cccc(O)c2C(=O)C1=O | - | >125 µg/mL
Cc1cn([C@H]2C[C@H](N=[N+]=[N-])[C@@H](CO)O2)c(=O)[nH]c1=O | - | >100 µM
COC(=O)C(C)CNP(=O)(OC[C@@H]1CC[C@H](n2cc(C)c(=O)[nH]c2=O)O1)Oc1ccc(Cl)cc1 | - | >100 µM
Nc1nc2c(ncn2[C@@H]2C[C@H](OCP(=O)(O)O)CC2(F)F)c(=O)[nH]1 | - | >100 µM
Nc1nc2c(ncn2[C@@H]2OC[C@](CO)(CCP(=O)(O)O)[C@@H]2F)c(=O)[nH]1 | MTT | >100 µM
C#C[C@]1(CO)O[C@@H](n2cnc3c(N)nc(F)nc32)C[C@@H]1O | - | 12 µM
O=c1ccn(Cc2ccccc2)c(=O)n1-c1ccccc1 | - | 216 µM
Nc1ccn([C@@H]2C[C@@H](O)[C@H](CO)O2)c(=O)n1 | - | >200 µM
Nc1nc(N)c2ncn([C@H]3CO[C@@H](CO)O3)c2n1 | - | >1000 µM
CCCCCc1ccc(-c2cc3cn(C/C=C/C(O)CO)c(=O)nc3o2)cc1 | - | >100 µM
Nc1ncnc2c1ncn2[C@H]1CC[C@@H](CO)O1 | - | >100 µM
COc1ccc(OC)c(CCNC(=S)Nc2ccc(Br)cn2)c1 | - | >100 µM
Nc1ncnc2c1ncn2[C@H]1CC[C@](OCP(=O)(O)O)(C(F)(F)F)C1 | MTT | 90 µM
CC1=CC2=C(C(C)C)C(O)C(=O)/C(=C\N[C@H](C)C(=O)O)C2C(O)=C1c1c(C)cc2c(C(C)C)c(O)c(O)c(C=N[C@@H](C)C(=O)O)c2c1O.[Na+].[Na+] | MTT | 95.08 µM
CSCSc1nc(Cc2ccccc2)c(C(C)C)c(=O)[nH]1 | - | >100 µM
CC1=CC2=C(C(C)C)C(O)C(=O)/C(=C\N[C@@H](C(=O)O)C(C)C)C2C(O)=C1c1c(C)cc2c(C(C)C)c(O)c(O)c(C=N[C@H](C(=O)O)C(C)C)c2c1O.[Na+].[Na+] | MTT | 70.67 µM
CNCCNCc1ccc2ccc3ccc(CNCCNC)nc3c2n1 | - | >100 µM
O=c1[nH]cnc2c1ncn2[C@H]1C=C[C@@H](CO)O1 | - | >100 µM
N#CCn1ccc(=O)n(Cc2c(F)cccc2F)c1=O | - | >451 µM
CC(=O)c1cn(CC=C(CO)CO)c(=O)[nH]c1=O | - | >100 µM
O=C(O)[C@H]1O[C@@H](Oc2cc3oc(-c4ccccc4)cc(=O)c3c(O)c2O)[C@H](O)[C@@H](O)[C@@H]1O | - | >10 µg/mL
Nc1ncnc2c1ncn2[C@@H]1C[C@H](OCP(=O)(O)O)CC1(F)F | - | >100 µM
CC(C)Nc1cccnc1N1CCN(C(=O)c2cc3cc(NS(C)(=O)=O)ccc3[nH]2)CC1 | - | >100 µM
COc1ccc(OC)c(CCNC(=S)Nc2ccc(Br)cn2)c1 | - | >100 µM
O=c1[nH]cnc2c1ncn2[C@@H]1O[C@H](CO)C=C1F | - | 92.7 µM
CC1(C)C=Cc2c(ccc3cc(C(=O)c4ccncc4)c(=O)oc23)O1 | - | >1001 µM
CCCCCc1ccc(-c2cc3cn(COCCO)c(=O)nc3o2)cc1 | - | >100 µM
[B-][P@](=O)(OC[C@H]1O[C@@H](n2cc(C)c(=O)[nH]c2=O)C[C@@H]1N=[N+]=[N-])OP(=O)(O)C(F)(F)P(=O)(O)O | - | >50 µM
COC(=O)[C@H](Cc1ccccc1)NC(=O)OC[C@H]1O[C@@H](n2cc(C)c(=O)[nH]c2=O)C[C@@H]1N=[N+]=[N-] | - | >100 µM
N#CCn1ccc(=O)n(Cc2cc(F)cc(F)c2)c1=O | - | >451 µM
Cc1cn([C@H]2C[C@H](N=[N+]=[N-])[C@@H](CO)O2)c(=O)[nH]c1=O | - | >100 µM
CN(C)c1cccc2c(S(=O)(=O)N3CCSC3c3cccnc3)cccc12 | - | 2080 µM
O=c1ccn([C@H]2CC[C@@H](CO)O2)c(=O)[nH]1 | - | >100 µM
CN1CCNCc2cccc(n2)-c2cccc(n2)CNCC1 | - | >100 µM
COC(=O)C(C)CNP(=O)(OC[C@@H]1CC[C@H](n2cc(C)c(=O)[nH]c2=O)O1)Oc1ccccc1 | - | >100 µM
Cc1cc(SC2=C(O)CC(CCc3ccc(O)cc3)(C(C)C)OC2=O)c(C(C)(C)C)cc1OS(C)(=O)=O | - | >100 µM
Nc1nc2c(ncn2[C@H]2C=C[C@@H](CO)O2)c(=O)[nH]1 | - | >100 µM
CC1=CC(=O)c2c(O)cccc2C1=O | - | >125 µg/mL
O=c1ccn(Cc2ccccc2)c(=O)n1Cc1ccccc1 | - | 179 µM
CNC(=O)[C@@H](Cc1c[nH]c2ccccc12)NC(=O)OC[C@H]1O[C@@H](n2cc(C)c(=O)[nH]c2=O)C[C@@H]1N=[N+]=[N-] | - | >100 µM
C[C@H](N)C(=O)O.[Na+] | MTT | 95.08 µM
Cc1cn([C@@H]2O[C@H](CO)[C@@H](N=[N+]=[N-])[C@H]2O)c(=O)[nH]c1=O | - | >100 µM
CCC[C@@]1(CCc2ccccc2)CC(O)=C([C@H](CC)c2cccc(NS(=O)(=O)c3ccc(C(F)(F)F)cn3)c2)C(=O)O1 | - | 30 µM
NNC(=O)NN1C(=O)c2cc(S(=O)(=O)[O-])cc3c(N)c(S(=O)(=O)[O-])cc(c23)C1=O | - | >100 µM
Cc1cc(C)cc(Cn2c(=S)ccn(Cc3ccccc3)c2=O)c1 | - | >371 µM
O[C@]12C=C(Cc3cc4cc(F)ccc4[nH]3)[C@@H]3CCN(CCCC/C=C\CC1)C[C@@]31C[C@@H]3CCCCCCN3C12 | trypan blue | 4 µM
C[C@@H]1O[C@@H](OC[C@H]2O[C@@H](Oc3c(-c4ccc(OS(=O)(=O)O)c(OS(=O)(=O)O)c4)oc4cc(OS(=O)(=O)O)cc(OS(=O)(=O)O)c4c3=O)[C@H](OS(=O)(=O)O)[C@@H](OS(=O)(=O)O)[C@@H]2OS(=O)(=O)O)[C@H](OS(=O)(=O)O)[C@H](OS(=O)(=O)O)[C@H]1OS(=O)(=O)O | - | 2589 µM
C=C(C)[C@]12C[C@@H](COC(=O)c3ccccc3)[C@@]34O[C@]5(O[C@@H]1[C@@H]3[C@@H]1O[C@]1(CO)[C@@H](O)[C@@]1(O)[C@H]4[C@H]([C@H](C)[C@@H]1OC(=O)c1ccccc1)[C@H](C)CCCCCC[C@H]5O)O2 | luminescence | >2.5 µM
Nc1c(S(=O)(=O)[O-])cc2c3c(cc(S(=O)(=O)[O-])cc13)C(=O)N(NC(=O)N/N=C\c1cccc(C=O)c1)C2=O.[Na+].[Na+] | - | >100 µM
CC(C)(N)C(=O)O.[Na+] | MTT | 81.43 µM

For reference, 10 entries again:

structure,read by,result
O=c1[nH]cnc2c1ncn2[C@@H]1O[C@H](CO)C=C1F,-,92.7 µM
O=c1ccn(Cc2ccccc2)c(=O)n1Cc1ccccc1,-,179 µM
C[C@]12CC[C@@H]3c4ccc(O)cc4CC[C@H]3[C@@H]1CC[C@@H]2O,MTS,>0.003 µM
COc1ccc(OC)c(CCNC(=S)Nc2ccc(Br)cn2)c1,-,>100 µM
CC1=CC2=C(C(C)C)C(O)C(=O)/C(=C\N[C@H](C)C(=O)O)C2C(O)=C1c1c(C)cc2c(C(C)C)c(O)c(O)c(C=N[C@@H](C)C(=O)O)c2c1O.[Na+].[Na+],MTT,95.08 µM
Cc1cn([C@H]2C=C[C@@H](CO)O2)c(=O)[nH]c1=O,-,>100 µM
O=c1ccn([C@H]2CC[C@@H](CO)O2)c(=O)[nH]1,-,>100 µM
Nc1ncnc2c1ncn2[C@H]1CC[C@@H](CO)O1,-,>100 µM
COC(=O)[C@H](Cc1ccccc1)NC(=O)OC[C@H]1O[C@@H](n2cc(C)c(=O)[nH]c2=O)C[C@@H]1N=[N+]=[N-],-,>100 µM
CC1=C(O)c2cccc(O)c2C(=O)C1=O,-,>125 µg/mL